Test results reported in patent publication US7728106B2 (University of Maryland Biotechnology Institute, priority 2005, dated 2010).
Some peptides are written in HELM: one residue between dots, names in brackets for other building blocks, links after the first $.

Experiment: general procedure: Fmoc solid-phase peptide synthesis; PAL-PEG-PS resin
Conditions: conjugation step

## PEPTIDE1{T.S.V.E.I.[AsnG2M3].C.T.R.P.N.N.N.T.R.K.R.I.R.I.Q.R.G.P.G.R.A.F.V.T.I.G.K.I.G.N.M.R.Q.A.H.C.[AsnG2M3].I.S.R.A.[am]}$PEPTIDE1,PEPTIDE1,7:R3-42:R3$$$V2.0
  conjugation yield: 72%
